Measured values from several laboratories, pooled; numbers as filed in NIAID ChemDB.

Common to all: growth or infection tests; organism: Mycobacterium tuberculosis

ECn is the concentration giving n% inhibition of infection, replication or growth. Blank or dashed fields: not listed here. MIC bound comes from a single tested concentration. Inhibition is in % at the dose shown (toxicity tests: loss of growth or viability). MIC50, MIC90 and the like: level of inhibition, or share of isolates inhibited. Lines come from different laboratories, so protocols vary.

| smiles | mutations | strain or isolate | tested at | read by | endpoint | value |
|---|---|---|---|---|---|---|
| CN1[C@@H]2CC[C@H]1CC(OC(c1ccccc1)c1ccccc1)C2 |  | H37Rv |  |  | MIC99 | 250 µg/mL |
| O=C(N/N=C/c1cc2cc(F)ccc2[nH]c1=O)c1cccnc1 |  | H37Rv |  | resazurin / visual reading | MIC | 50 µg/mL |
| CCCCN(CCCC)CCNc1ccc(Cl)c2oc3cc(C)ccc3c(=O)c12.Cl |  | H37Rv |  | BACTEC | MIC | ≥12.5 µg/mL |
| COc1ccc(C(Br)C(Br)C(=O)O)cc1 |  | BCG |  |  | MIC | >100 µg/mL |
| COc1ccccc1N=Nc1c(O)c2ccc([N+](=O)[O-])cc2[nH]c1=O |  | H37Rv |  | resazurin | MIC | <6.25 µg/mL |
| O=C1CC(SC(=S)N2CCOCC2)C(=O)N1 |  | PAS-R |  |  | MIC | 3.2 µg/mL |
| Cc1nn2c(COCc3cn(-c4ccccc4F)nn3)c(-c3ccc(Cl)cc3)nc2s1 |  | H37Rv |  | agar | MIC | 50 µg/mL |
| CCOC(=O)Cc1csc(NC(=O)CCl)n1 |  | H37Rv |  |  | EC50 | <12.5 µg/mL |
| COc1ccc(/C=C/Br)cc1 |  | BCG |  |  | MIC | >100 µg/mL |
| CCOC(=O)Cc1csc(/N=C2/NC(=O)/C(=C\c3ccc([N+](=O)[O-])cc3)S2)n1 |  | H37Rv |  |  | MIC | >12.5 µg/mL |
| NNC(=O)c1ccncc1 |  |  |  |  | MIC | 0.04 µg/mL |
| N=c1cc2c(cn1-c1cccc(C(=O)O)c1)C(=O)c1ccccc1C2=O | Lux | H37Rv |  | luminescence | MIC | 38.11 µM |
| COc1cc(CCCOC2OC(COC3OCC(O)C(O)C3O)C(O)C(O)C2O)cc2cc(-c3ccc4c(c3)OCO4)oc12 |  | H37Rv |  | BACTEC | MIC bound | >12.5 µg/mL |
| CC1(C)S[C@@H]2[C@H](NC(=O)[C@H](N)c3ccc(O)cc3)C(=O)N2[C@H]1C(=O)O |  | H37Rv |  | fluorescence | MIC | 40 µg/mL |
| Cc1ccc(-n2cc3c(cc2=N)C(=O)c2ccccc2C3=O)c(Br)c1 | Lux | H37Rv |  | luminescence | MIC | 0.59 µM |
| COc1ccc2c(c1)Sc1c(ccc3ccccc13)N2CCCN(C)C |  | H37Rv |  |  | MIC | 3.13 µg/mL |
| C/C(=N\NC(N)[S-])c1ccccn1.CC(=O)/C=C(/C)[O-].[O]=[V+2] |  | H37Rv (ATCC 27294) |  | resazurin | MIC | 62.5 µg/mL |
| CCc1nc2ccccc2c2nc3ccccc3n12 |  | H37Rv |  | resazurin | MIC99 | 101.1 µM |
| CC(C)(O)[C@H](O)COc1c2occc2cc2ccc(=O)oc12 |  | H37Rv |  |  | MIC | 100 µg/mL |
| COc1cc(/C=C2\SC(=S)N(CCC(=O)NNC(=O)c3ccncc3)C2=O)cc(OC)c1OC |  | H37Rv |  |  | MIC | 1.55 µM |
| O=C1CC(c2ccccc2Br)Oc2ccccc21 |  |  |  |  | EC50 | >12.5 µg/mL |
| COC(=O)Nc1cn2nc(N)sc2n1 |  | H37Rv | 12.5 µg/mL | BACTEC | inhibition | 0% |
| N#C/C(=C\c1ccc(N)cc1)n1nnc2ccccc21 |  |  | 12.5 µg/mL |  | inhibition | 33% |
| COc1c2c(c(OC)c3ccccc13)CN(c1ccccc1Cl)C(=N)C2 | Lux | H37Rv |  | luminescence | MIC | 15.92 µM |
| Cc1ccc(OC(=O)c2ccc(NC(=O)c3ccccc3C(=O)O)cc2O)cc1 |  | H37Rv |  |  | MIC | 0.0313 µg/mL |
| Cc1ccc(NC(=O)Nc2ccc(C)c(NC(=O)Nc3ccc(C)c(Cl)c3)c2)cc1Cl |  | H37Rv |  | BACTEC | MIC bound | >12.5 µg/mL |
| Cc1ccc(-n2cc3c(cc2=N)C(=O)c2ccccc2C3=O)cc1 | Lux | H37Rv |  | luminescence | MIC | 2.68 µM |
| C/C=C1/CN2[C@H]3C[C@@H]1[C@@H](CO)[C@@H]2Cc1c3[nH]c2ccc(OC)cc12 |  | H37Rv |  |  | MIC | >200 µg/mL |
| Cc1cccc(N=Nc2c(O)c3cccc(C)c3[nH]c2=O)c1 |  | H37Rv |  | resazurin | MIC | >6.25 µg/mL |
| O=[N+]([O-])c1ccc(N/N=C/c2ccc3c(c2)OCO3)nc1 |  | H37Rv | 12.5 µg/mL | BACTEC | inhibition | 4% |
| N#C/C(=C/c1ccc(C(=O)O)cc1)n1nc2ccccc2n1 |  |  |  |  | EC50 | >12.5 µg/mL |
| CC1CN(C(=O)/C=C/C(=O)OC2CCCCC2)CCN1C(=O)/C=C/C(=O)OC1CCCCC1 |  | ETA-R |  |  | MIC | >12.5 µg/mL |
| COc1ccc(/C=C/C(=O)c2c(O)cccc2OC)cc1 |  | H37Rv |  |  | EC50 | <12.5 µg/mL |
| O=NN1C(c2ccccc2)CC(=NO)CC1c1ccccc1 |  | H37Rv |  | resazurin | MIC bound | >6.25 µg/mL |
| O=C(CCN1C(=O)/C(=C/c2ccc3c(c2)OCO3)SC1=S)NNC(=O)c1cccnc1 |  | H37Rv |  |  | MIC | 54.81 µM |
| CC(=O)Nc1ccc(/C=N/NC(N)=S)cc1F |  | H37Rv |  |  | MIC | ≤0.1 µg/mL |
| N#C/C(=C\c1ccc(C(F)(F)F)cc1)n1nc2ccccc2n1 |  |  | 12.5 µg/mL |  | inhibition | 17% |
| C=C1C2CC[C@H](C=O)C(O)(C=O)[C@@]2(C)CC[C@@H]1C |  | H37Rv |  |  | MIC | 100 µg/mL |
| N#C/C(=C\c1ccc(C(=O)O)cc1)n1nnc2ccccc21 |  |  | 12.5 µg/mL |  | inhibition | 0% |
| CC1(C)CC(N(C(=O)/C=C/c2ccc([N+](=O)[O-])o2)C2CCCCC2)CC(C)(C)N1 |  | H37Rv |  | BACTEC | MIC | ≥12.5 µg/mL |
| N#C/C(=C\c1ccc(F)cc1)n1nc2ccccc2n1 |  |  | 12.5 µg/mL |  | inhibition | 0% |
| CC[C@@H](CO)NCCN[C@@H](CC)CO |  | H37Rv |  |  | MIC | 7.64 µM |
| C[C@@H](O)[C@H]1C(=O)N2C(C(=O)O)=C([C@H]3CCCO3)S[C@H]12 |  | H37Rv |  | fluorescence | MIC | 1.3 µg/mL |
| COc1ccc(N=Nc2c(O)c3cccc([N+](=O)[O-])c3n(C)c2=O)c(C)c1 |  | H37Rv | 6.25 µg/mL | resazurin | inhibition | 40% |
| COc1cccc(/C=C/C(=O)NN)c1OC |  | BCG |  |  | MIC | 20 µg/mL |
| CC(=O)/C=C(/C)[O-].CC(=O)/C=C(/C)[O-].[O]=[V+2] |  | H37Rv (ATCC 27294) |  | resazurin | MIC | >50 µg/mL |
| CCCCCCCCCCCCCCCCc1c(C(=O)OC)nc(N)[nH]c1=O |  | H37Rv | 12.5 µg/mL | BACTEC | inhibition | 0% |
| CCOC(=O)c1ccc(N2Cc3c(c(OC)c4ccccc4c3OC)CC2=N)cc1 | Lux | H37Rv |  | luminescence | MIC | 12.43 µM |
| CCCCOC(=O)c1ccc(NC(=O)CCC(=O)O)cc1O |  | H37Rv |  |  | MIC | >20 µg/mL |
| c1ccc(CSc2nnc3c4ccccc4c4ccccc4c3n2)cc1 |  | H37Rv |  |  | MIC99 | 162.5 µg/mL |
| COc1ccc(C(=O)/C=C/c2cccc(I)c2)c(O)c1 |  | H37Rv |  |  | EC50 | >12.5 µg/mL |
| COc1ccc(N=Nc2c(O)c3ccc(Cl)cc3[nH]c2=O)cc1 |  | H37Rv |  | resazurin | MIC | >6.25 µg/mL |
| O=C(CCN1C(=O)/C(=C/c2ccc([N+](=O)[O-])cc2)SC1=S)NNC(=O)c1ccccc1 |  | H37Rv |  |  | MIC | 1.71 µM |
| NNC(=O)c1ccncc1 |  | H37Rv |  | fluorescence | MIC | 0.025 µg/mL |
| CCC1CCC2CN(/N=C/c3c4c(O)c5c(O)c(C)c6c(c5c3O)C(=O)[C@@](C)(O/C=C/[C@H](OC)[C@@H](C)[C@@H](OC(C)=O)[C@H](C)[C@H](O)[C@H](C)[C@@H](O)[C@@H](C)/C=C/C=C(/C)C(=O)N4)O6)CCN2C1 |  | H37Rv |  |  | MIC | 0.03 µg/mL |
| Cc1ccc(C(=O)N/N=C/c2cc3cc(F)ccc3[nH]c2=O)cn1 |  | H37Rv |  | resazurin / visual reading | MIC | 50 µg/mL |
| CCOC(=O)c1c(NC(=O)c2ccccc2)sc2c1CCC2 |  | H37Rv |  | resazurin | MIC bound | >6.25 µg/mL |
| CCOC(=O)c1ccc(N)cc1O |  | H37Rv |  |  | MIC | >20 µg/mL |
| COC(=O)C(C)(C)NC(=O)C(Cc1ccccc1)NC(=O)C(C)(C)NC(=O)OCc1ccccc1 |  | H37Rv | 12.5 µg/mL | BACTEC | inhibition | 15% |
| C/C(=N\NC([S-])Nc1ccccc1)c1ccccn1.CC(=O)/C=C(/C)[O-].[O]=[V+2] |  | H37Rv (ATCC 27294) |  | resazurin | MIC | 1.56 µg/mL |
| O=[N+]([O-])c1ccc2nc(-c3ccccc3-c3nnc(-c4cccc(Cl)c4)o3)[nH]c2c1 |  | H37Rv |  |  | EC50 | <12.5 µg/mL |
| O=C(CCN1C(=O)/C(=C/c2ccc(OCc3ccccc3)cc2)SC1=S)NNC(=O)c1cccnc1 |  | H37Rv |  |  | MIC | 12.07 µM |
| COc1ccc2nc(C)n3c4ccccc4nc3c2c1 |  | H37Rv |  | resazurin | MIC99 | 12.5 µg/mL |
| COc1ccc([C@@H]2CC(=O)c3c(OC)cc(OC)c([C@H]4C(=O)c5c(OC)cc(OC)cc5O[C@@H]4c4ccc(OC)cc4)c3O2)cc1 |  | H37Rv |  |  | EC50 | <12.5 µg/mL |
| Cc1cc(O)c2c(c1)C(=O)C(c1c(C)cc3c(c1O)C(=O)C=CC3=O)=CC2=O |  | C9 streptomycin- isoniazid- rifampin-resistant |  |  | MIC | 100 µg/mL |
| COc1ccc(C/C=N/O)cc1 |  | BCG |  |  | MIC | >100 µg/mL |
| CCOC(=O)Cc1csc(/N=C2/NC(=O)/C(=C\c3ccc([N+](=O)[O-])cc3[N+](=O)[O-])S2)n1 |  | H37Rv |  |  | MIC | >12.5 µg/mL |
| O=c1[nH]c2c(Cl)c(Cl)ccc2c(O)c1N=Nc1cccc(F)c1 |  | H37Rv |  | resazurin | MIC | <6.25 µg/mL |
| N#C/C(=C\c1ccccc1)n1nnc2ccccc21 |  |  | 12.5 µg/mL |  | inhibition | 98% |
| O=C1c2ccccc2C(=O)c2[nH]cnc21 |  | H37Rv |  | BACTEC | MIC bound | ≤12.5 µg/mL |
| COc1ccc(/C=C/C(=O)c2cccc(F)c2O)cc1 |  |  |  |  | EC50 | >12.5 µg/mL |
| O=C(O)O.O=C1C=C(N2CCN(CCO)CC2)C(=O)c2c(N3CCN(CCO)CC3)cc(N3CCN(CCO)CC3)nc21 |  | H37Rv | 12.5 µg/mL | BACTEC | inhibition | 21% |
| O=C(CCN1C(=O)/C(=C/c2ccc(Cl)cc2)SC1=S)NNC(=O)c1cccc2ccccc12 |  | H37Rv |  |  | MIC | 63.71 µM |
| COc1ccc(/C=C/C(=O)c2ccc(Br)cc2O)cc1 |  | H37Rv |  |  | EC50 | >12.5 µg/mL |
| C=CCSc1ncnc2[nH]ncc12 |  | H37Rv |  |  | MIC | 260 µg/mL |
| O=[N+]([O-])c1cc([N+](=O)[O-])c2nc3ccccn3c2c1 |  | H37Rv |  | resazurin | MIC bound | >6.25 µg/mL |
| N#C/C(=C\c1ccc(Br)cc1)n1nnc2ccccc21 |  |  | 12.5 µg/mL |  | inhibition | 99% |
| Nc1ccc(C(=O)/C=C/c2ccccc2)cc1 |  | H37Rv | 12.5 µg/mL |  | inhibition | 5% |
| CCOC(=O)Cc1csc(/N=C2/NC(=O)/C(=C\c3ccccc3[N+](=O)[O-])S2)n1 |  | H37Rv |  |  | MIC | >12.5 µg/mL |
| CCCCc1nc2ccccc2c2nc3cc4ccccc4cc3n12 | INH resistant | H37Rv |  | resazurin | MIC99 | 12.5 µg/mL |
| Cc1ccc(-c2nc3sc(C)nn3c2COCc2cn(-c3ccc(F)cc3)nn2)cc1 |  | H37Rv |  | agar | MIC | 50 µg/mL |
| CCOC(=O)Cc1csc(/N=C2/NC(=O)/C(=C\c3ccc([N+](=O)[O-])o3)S2)n1 |  | H37Rv | 12.5 µg/mL |  | inhibition | 67% |
| C=CCn1c(-c2ccc([N+](=O)[O-])cc2)csc1=N |  | H37Rv | 12.5 µg/mL | BACTEC | inhibition | 96% |
| COC(=O)c1ccc(NC(=O)CCC(=O)O)cc1O |  | H37Rv |  |  | MIC | >20 µg/mL |
| NNC(=O)/C=C/c1ccc(O)cc1 |  | BCG |  |  | MIC | 5 µg/mL |
| NC(=O)c1cnccn1 |  | H37Rv |  | resazurin | MIC99 | 6.25 µg/mL |
| NNC(=O)Cc1ccc2ccccc2c1 |  | H37Rv |  | BACTEC | MIC | ≥12.5 µg/mL |
| O=c1[nH]c2cc(Cl)ccc2c(O)c1N=Nc1cccc(Cl)c1 |  | H37Rv |  | resazurin | MIC | >6.25 µg/mL |
| O=c1c2cccc3cccc(c4oc5c6cccc7cccc(c(=O)c5c14)c76)c32 |  | H37Rv | 12.5 µg/mL | BACTEC | inhibition | 0% |
| O=C1c2ccccc2OC(c2ccccc2)C1(Br)Br |  |  | 12.5 µg/mL |  | inhibition | 0% |
| CCO/C=C1N=C(/C=C/c2ccccc2Cl)OC\1=O |  | H37Rv |  | BACTEC | MIC bound | >12.5 µg/mL |
| O=C(O)C1C(=CCO)OC2CC(=O)N21.[K+] |  | H37Rv |  | fluorescence | MIC | >5 µg/mL |

6 of the rows above, restated:

smiles	mutations	strain or isolate	tested at	read by	endpoint	value
Cc1ccc(NC(=O)Nc2ccc(C)c(NC(=O)Nc3ccc(C)c(Cl)c3)c2)cc1Cl		H37Rv		BACTEC	MIC bound	>12.5 µg/mL
C[C@@H](O)[C@H]1C(=O)N2C(C(=O)O)=C([C@H]3CCCO3)S[C@H]12		H37Rv		fluorescence	MIC	1.3 µg/mL
O=C(O)O.O=C1C=C(N2CCN(CCO)CC2)C(=O)c2c(N3CCN(CCO)CC3)cc(N3CCN(CCO)CC3)nc21		H37Rv	12.5 µg/mL	BACTEC	inhibition	21%
O=c1c2cccc3cccc(c4oc5c6cccc7cccc(c(=O)c5c14)c76)c32		H37Rv	12.5 µg/mL	BACTEC	inhibition	0%
O=C1CC(SC(=S)N2CCOCC2)C(=O)N1		PAS-R			MIC	3.2 µg/mL
O=c1[nH]c2cc(Cl)ccc2c(O)c1N=Nc1cccc(Cl)c1		H37Rv		resazurin	MIC	>6.25 µg/mL